Results of unrelated studies side by side (data: NIAID ChemDB).

Common to all: whole-cell or culture tests

A number after MIC or MFC names an inhibition level or a share of isolates.

compound | strain or isolate | dose | read by | cells | organism | read-out | value
C[C@@H](c1ncncc1F)[C@](O)(Cn1cncn1)c1ccc(F)cc1F |  |  | broth dilution |  | Cryptococcus gattii | MIC50 | 0.125 µg/mL
COc1ccc(/C=C2\Oc3cc(O)ccc3C2=O)cc1OC |  | 10 µM |  |  | Cryptosporidium parvum | inhibition | 53%
Cn1ncc2c1C(=O)c1cccc(O)c1C2=O |  | 10 µM |  |  | Cryptosporidium parvum | inhibition | 32%
CC(=O)Oc1ccccc1C(=O)Nc1ncc([N+](=O)[O-])s1 |  | 0.5 µg/mL |  | A549 | Cryptosporidium parvum | inhibition | 11.8%
C[C@@H](c1ncncc1F)[C@](O)(Cn1cncn1)c1ccc(F)cc1F | CBS 11752 |  | broth dilution |  | Cryptococcus gattii | MIC | 0.125 µg/mL
COc1cc(O)c2c(O)c(C(=O)c3ccccc3)oc2c1 |  | 50 µM |  |  | Cryptosporidium parvum | inhibition | 19%
O=C1c2cn[nH]c2C(=O)c2c(O)ccc(O)c21 |  | 100 µM |  |  | Cryptosporidium parvum | inhibition | 100%
CC1(C)O[C@H]2[C@H](O)[C@@H](N=[N+]=[N-])C=C(c3ccc(C=O)cc3)[C@H]2O1 | ATCC 32264 | 250 µg/mL | broth dilution / turbidity |  | Cryptococcus neoformans | inhibition | 61.84%
Oc1ccccc1N=Cc1ccccc1 | LMM 818 |  |  |  | Cryptococcus gattii | MIC99 | 5.7 µg/mL
Cn1ncc2c1C(=O)c1cccc(Br)c1C2=O |  |  |  |  | Cryptosporidium parvum | EC50 | 25–50 µM
Oc1ccccc1C=Nc1ccccc1O | L 27/01 |  |  |  | Cryptococcus gattii | MIC99 | 16 µg/mL
NCCCC[C@H](NC(=O)[C@H](Cc1c[nH]c2ccccc12)NC(=O)[C@H](CCCCN)NC(=O)[C@@H](N)CCCCN)C(=O)O | ATCC 32264 | 200 µM |  |  | Cryptococcus neoformans | inhibition | 0%
COc1ccc(/C=C2\Oc3cc(O)cc(O)c3C2=O)cc1O |  | 25 µM |  |  | Cryptosporidium parvum | inhibition | 65%
CCn1ncc2c1C(=O)c1c(O)ccc(O)c1C2=O |  | 100 µM |  |  | Cryptosporidium parvum | inhibition | <10%
CCOC(=O)c1c(C)nc(NCCCCNc2ccnc3cc(Cl)ccc23)nc1-c1ccc(F)cc1 | L-28/02 |  |  |  | Cryptococcus gattii | MIC99 | 8 µg/mL
CC(=O)Oc1ccccc1C(=O)Nc1ncc([N+](=O)[O-])s1 |  | 10 µg/mL | cell count | MDBK | Cryptosporidium parvum | inhibition | 93%
Oc1cccc(C=Nc2ccccc2O)c1 | ATCC 24065 |  |  |  | Cryptococcus gattii | MIC99 | 5.7 µg/mL
CC[C@@H](C(=O)[C@@H](C)[C@@H](O)[C@H](C)CCc1ccc(C)c(O)c1C(=O)O)[C@H]1O[C@](CC)([C@H]2CC[C@](O)(CC)[C@H](C)O2)C[C@@H]1C | IOWA | 1 µg/mL | luminescence | MDCK | Cryptosporidium parvum | inhibition | 84.6%
Oc1ccc(O)c(C=Nc2ccccc2O)c1 | 547/OTTI-97-PI-10 |  |  |  | Cryptococcus gattii | MIC99 | 8 µg/mL
Cc1[nH]nc2c1C(=O)c1c(O)ccc(O)c1C2=O |  | 50 µM |  |  | Cryptosporidium parvum | inhibition | 79%
CCOC(=O)c1c(C)nc(NCCCCNc2ccnc3cc(Cl)ccc23)nc1-c1ccccc1[N+](=O)[O-] | 135L/03 |  |  |  | Cryptococcus gattii | MIC99 | 8 µg/mL
O=C1COc2cc(O)ccc21 |  | 10 µM |  |  | Cryptosporidium parvum | inhibition | 0%
CCOC(=O)c1c(C)nc(OCCCNc2ccnc3cc(Cl)ccc23)nc1-c1ccccc1 | ATCC 24065 |  |  |  | Cryptococcus gattii | MIC99 | 8 µg/mL
Cc1cc(O)c2c(c1)C(=O)c1c(cnn1C)C2=O |  |  |  |  | Cryptosporidium parvum | EC50 | >100 µM

Again, the opening 3 rows:

compound | strain or isolate | dose | read by | cells | organism | read-out | value
C[C@@H](c1ncncc1F)[C@](O)(Cn1cncn1)c1ccc(F)cc1F |  |  | broth dilution |  | Cryptococcus gattii | MIC50 | 0.125 µg/mL
COc1ccc(/C=C2\Oc3cc(O)ccc3C2=O)cc1OC |  | 10 µM |  |  | Cryptosporidium parvum | inhibition | 53%
Cn1ncc2c1C(=O)c1cccc(O)c1C2=O |  | 10 µM |  |  | Cryptosporidium parvum | inhibition | 32%

Blank or dashed fields: not listed here. Percent inhibition refers to the dose given; in toxicity tests it is the harm to the cells. ECn is the concentration giving n% inhibition of infection, replication or growth. Rows are shuffled and stem from different studies. a–b is a range or a potency band.